Laboratory results as given in patent publication US20240336672A1.

Columns and labels:
Assay in all cases: polyreactivity ELISA
Set-up in all cases: unit not given beside the values
Insulin = biological target: Insulin
KLH (keyhole limpet) = biological target: KLH (keyhole limpet)
LZ = biological target: LZ
MAPK14 = biological target: MAPK14
Tg = biological target: Tg

## mGO53 (antibody)
Insulin
  AUC (polyreactivity ELISA): 0.6
KLH (keyhole limpet)
  AUC (polyreactivity ELISA): 0.6
LZ
  AUC (polyreactivity ELISA): 0.6
MAPK14
  AUC (polyreactivity ELISA): 0.5
Tg
  AUC (polyreactivity ELISA): 0.6
